Pooled drug test results. Numbers come from NIAID ChemDB, via PubChem.

Common to all: tests in culture; species: Human cytomegalovirus; cell line: HEL; measure: EC50

Conditions beyond the fields shown may differ between rows. ECn is the concentration giving n% inhibition of infection, replication or growth.

SMILES	strain or isolate	method	value
CCCCC#Cc1cn(S(=O)(=O)c2ccc(C)cc2)c(=O)[nH]c1=O	AD169	cytopathic effect	>16 µM
CC(C)NS(=O)(=O)c1ccccc1C(=O)N/N=C/c1ccc(-c2cccs2)cc1	AD169	plaque count	>100 µM
N#CCCC12CC3CC(C1)CC(N1C(=O)c4ccccc4C1=O)(C3)C2	AD169	plaque count	>100 µg/mL
C/C(=N/Nc1nc(-c2ccc(Br)cc2)cs1)c1ccc(NC(=O)CN2C(=O)c3ccccc3S2(=O)=O)cc1	AD169	plaque count	20 µM
OC[C@H]1O[C@H](c2cc(Br)c(F)cc2F)C[C@@H]1O	DAVIS	cytopathic effect	>200 µM
CCCCCCc1cc2cn(CCC(C)C)c(=O)nc2o1	DAVIS	plaque count	>200 µM
O=C(O)P(=O)(O)O	Ganciclovir-resistant	plaque count	60.6 µM
CC(=O)NS(=O)(=O)c1cc(C)c(NC(=O)CN2C(=O)c3ccccc3S2(=O)=O)cc1C	AD169	plaque count	>100 µM
OC[C@H]1O[C@@H](c2ccccc2)C[C@@H]1O	AD169	plaque count	>100 µg/mL
Cc1ccn2c(CSCc3ccccc3)c(-c3cccs3)nc2c1	AD169	cytopathic effect	2.7 µg/mL
CSc1nnc(-c2ccccc2S(=O)(=O)NC(C)C)o1	AD169	plaque count	>100 µM
CCCCCC#Cc1cn(S(=O)(=O)c2ccc(C)cc2)c(=O)[nH]c1=O	AD169	cytopathic effect	>80 µM
CC(C)NS(=O)(=O)c1ccccc1C(=O)N/N=C/c1ccc(Br)cc1	AD169	plaque count	>100 µM
NC(=O)c1c(Cl)c(-c2cccnc2)n2c1CCCC2	AD169	plaque count	0.07 µM
Nc1cc([C@H]2C[C@H](O)[C@@H](CO)O2)c(F)cc1F	AD169	cytopathic effect	>200 µM
Cc1c(Br)cc(Br)c2ncc(CSCc3ccc(Cl)cc3Cl)n12	AD169	plaque count	>5 µg/mL
CCCCc1cc2cnc(=O)[nH]c2o1	DAVIS	cytopathic effect	>400 µM
Cc1c(Br)cc(Br)c2ncc(CSCc3cccc(C(F)(F)F)c3)n12	DAVIS	plaque count	>50 µg/mL
Cc1ccn2c(CSCc3ccccc3)c(-c3ccc4ccccc4c3)nc2c1	AD169	cytopathic effect	>0.5 µg/mL
Cc1ccc(S(=O)(=O)NNC(=O)c2ccccc2S(=O)(=O)NC(C)C)cc1	DAVIS	plaque count	>100 µM
Cc1nc2ccccn2c1NC(=S)Nc1ccccc1	DAVIS	cytopathic effect	10 µg/mL
Cc1ccc(/C=N/NC(=O)c2ccccc2S(=O)(=O)NC(C)C)cc1	DAVIS	plaque count	>100 µM
Cc1ccn2c(CSCc3ccccc3)c(-c3ccco3)nc2c1	AD169	cytopathic effect	>50 µg/mL
O=[N+]([O-])c1cc([C@H]2C[C@H](O)[C@@H](CO)O2)c(F)cc1F	DAVIS	cytopathic effect	100 µM
Cc1c(Br)cc(Br)c2ncc(CSCc3ccc(Cl)c(Cl)c3)n12	AD169	plaque count	>5 µg/mL
Cc1ccn2c(CSCc3ccccc3)c(C34CC5CC(CC(C5)C3)C4)nc2c1	AD169	cytopathic effect	>0.5 µg/mL
Nc1ncnc2c1ncn2C[C@@H](CO)OCP(=O)(O)O	AD169	hybridisation	0.05 µM
CCCCCCCc1cc2cn(CCC(C)C)c(=O)nc2o1	AD169	plaque count	20 µM
COc1cc(F)c([C@H]2C[C@H](O)[C@@H](CO)O2)cc1[N+](=O)[O-]	AD169	cytopathic effect	>200 µM
Cc1ccn2c(CSCc3ccccc3)c(C3CC3C)nc2c1	DAVIS	cytopathic effect	5 µg/mL
CC(C)(C)c1nc2ccccn2c1NC(=O)Nc1ccccc1	DAVIS	cytopathic effect	32 µg/mL
CCCCCCc1cc2cn(C3CCCC3)c(=O)nc2o1	AD169	plaque count	>50 µM
Nc1ccn(C[C@H]2COP(=O)(O)CO2)c(=O)n1	AD169	hybridisation	0.1 µM
CCCCCCCCc1cc2cnc(OCCC(C)C)nc2o1	DAVIS	plaque count	20 µM
CC(C)NS(=O)(=O)c1ccccc1-c1n[nH]c(=S)o1	AD169	plaque count	>100 µM
Nc1ccn(C[C@@H](CO)OCP(=O)(O)O)c(=O)n1	DAVIS	plaque count	0.36 µM
Cc1cccc(CSCc2cnc3c(Br)cc(Br)c(C)n23)c1	DAVIS	plaque count	>20 µg/mL
CCCCOC[C@H]1O[C@@H]2CC(C)(C)C[C@@H]2[C@H]1OCCCC	AD169	plaque count	10.5 µg/mL
CCCCCCCCCCC#Cc1c[nH]c(=O)[nH]c1=O	AD169	cytopathic effect	>80 µM
O=C1NC23CC4CC(C2)C2C(C4)C3C2(O)c2ccccc21	DAVIS	plaque count	>100 µg/mL
Cc1c(Br)cc(Br)c2ncc(CSCc3cccs3)n12	AD169	plaque count	>50 µg/mL
O=C1c2cccc([N+](=O)[O-])c2C(=O)N1C1C2CC3CC(C2)CC1C3	AD169	plaque count	>100 µg/mL
CCCCCCCCc1cc2cnc(=O)[nH]c2o1	DAVIS	cytopathic effect	>400 µM
Nc1nc2c(ncn2COC(CO)CO)c(=O)[nH]1	DAVIS	plaque count	0.9 µg/mL
Cc1c(Br)cc(Br)c2ncc(CSCc3ccccc3F)n12	AD169	plaque count	>5 µg/mL
Nc1cccc2c1C(=O)N(C13CC4CC(CC(C4)C1)C3)C2=O	AD169	plaque count	>0.8 µg/mL
CC[Si]1(C(C)C)O[C@H]2[C@@H](O)[C@H](c3ccccc3)O[C@@H]2CO[Si](C(C)C)(C(C)C)O1	AD169	plaque count	1.2 µg/mL
COc1ccc(CSCc2cnc3c(Br)cc(Br)c(C)n23)cc1	DAVIS	plaque count	>50 µg/mL
Cc1cc(Br)cn2c(CSCc3ccccc3)cnc12	AD169	cytopathic effect	>20 µg/mL
O=C1c2ccccc2C(=O)N1CCCC12CC3CC(CC(C3)C1)C2	AD169	plaque count	≥4 µg/mL
Cc1c(Br)cc(Br)c2ncc(CSCc3ccc(Cl)cc3)n12	DAVIS	plaque count	>20 µg/mL
O=C1NC[C@@H]2C34CC5CC(CC(C5)[C@H]3[C@]2(O)c2ccccc21)C4	AD169	plaque count	>20 µg/mL
CCCCc1cc2cn(CCC(C)C)c(=O)nc2o1	AD169	plaque count	>50 µM

Repeating the first 5 entries:

SMILES	strain or isolate	method	value
CCCCC#Cc1cn(S(=O)(=O)c2ccc(C)cc2)c(=O)[nH]c1=O	AD169	cytopathic effect	>16 µM
CC(C)NS(=O)(=O)c1ccccc1C(=O)N/N=C/c1ccc(-c2cccs2)cc1	AD169	plaque count	>100 µM
N#CCCC12CC3CC(C1)CC(N1C(=O)c4ccccc4C1=O)(C3)C2	AD169	plaque count	>100 µg/mL
C/C(=N/Nc1nc(-c2ccc(Br)cc2)cs1)c1ccc(NC(=O)CN2C(=O)c3ccccc3S2(=O)=O)cc1	AD169	plaque count	20 µM
OC[C@H]1O[C@H](c2cc(Br)c(F)cc2F)C[C@@H]1O	DAVIS	cytopathic effect	>200 µM